Compound potency records, mixed from different reports. Data source: NIAID ChemDB in PubChem.

All rows: toxicity to cultured cells; measure: CC50

CCn is the concentration with n% toxicity to the cells. An empty or dashed field is not shown. Neighbouring rows are from separate reports.

compound	cell line	read by	result
O=c1cc(-c2cncnc2)c2cccnc2n1O	HeLa	-	<100 µM
CCCN(Cc1ccccc1OCCCCCC(=O)OCC)C(=O)c1ccc(Br)cc1	HepG2	-	>20 µM
O=C(NCCc1ccc2c(n1)NCCC2)Nc1c(F)ccc2c1OCOC2	PBMC	-	50 µM
Nc1cccc(-c2cnc3c(c2)c(O)cc(=O)n3O)c1	HeLa	-	<100 µM
O=C(C(=O)N1CCN(C(=O)c2ccccc2)CC1)c1c[nH]c2c(-c3ncon3)ncc(F)c12	HeLa	trypan blue	>100 µM
Cc1ccc(-n2ncc3c(Nc4cccc(Br)c4)ncnc32)c(C)c1	HUH 9B	-	30 µM
COc1cc(C)ccc1OCCOc1ccccc1F	RAJI	-	>20 µM
NCc1cccc(CNC(=O)Cc2c(O)c3cccnc3n(O)c2=O)c1	HeLa	-	<100 µM
CCCCc1ccc(Nc2ncnc3c2cnn3-c2ccc(F)cc2F)cc1	HUH 9B	-	>50 µM
NC(=S)Nc1cccc(OCCCCCOc2ccccc2-c2cc(F)cc(F)c2)c1	Ava5-EG(delta4AB)SEAP	MTS	>1 µM
CCOC(=O)C1=C(CN2CC(F)(F)[C@@H]3[C@H]2CON3C[C@@H](F)C(C)(C)C(=O)O)NC(c2nccs2)=N[C@H]1c1ccc(F)c(F)c1Cl	HepG2.2.15	WST / absorbance	29.7 µM
Cc1ccc(-n2ncc3c(Nc4ccc5[nH]ccc5c4)ncnc32)c(C)c1	HUH 9B	-	20 µM
CC(C)N(Cc1ccccc1)C(=O)c1ccc(-c2ccc3c(c2)OCO3)cc1	RAJI	-	<13.5 µM
COc1cnc(-n2cc(C)nn2)c2[nH]cc(C(=O)C(=O)N3CCN(C(=O)c4ccccc4)[C@H](C)C3)c12	HeLa	trypan blue	>100 µM
Cc1ccc(-n2ncc3c(NC(=O)Nc4ccc(OCc5ccccn5)cc4)ncnc32)c(C)c1	HUH 9B	-	18 µM
CCOC(=O)CCCCCOc1cccc(CN(C(=O)c2ccc(-c3cn(S(=O)(=O)c4ccccc4)c4ccccc34)cc2)C(C)C)c1	HepG2	-	>20 µM
COc1cnc(-n2cc(Cl)cn2)c2[nH]cc(C(=O)C(=O)N3CCN(C(=O)c4ccccc4)CC3)c12	HeLa	trypan blue	≤100 µM
NS(=O)(=O)c1ccc(CCNc2ncnc3c2CNN3c2ccccc2Br)cc1	HUH 9B	-	>50 µM
Cc1cn(-c2cccc(CCNC(=O)NCc3ccc(Cl)c(Cl)c3)n2)cn1	PBMC	-	50 µM
CC(C)N(Cc1cccc(OCCCCCC(=O)OC(=O)O)c1)C(=O)c1ccccc1	BJ	-	>20 µM
CC(C)c1ccccc1NC(=O)NCCCc1ccc2c(n1)NCCC2	PBMC	-	15.1 µM
CCOC(=O)c1c(O)c2cc(C(C)=O)cnc2n(O)c1=O	HeLa	-	<100 µM
O=C(NCC1CCc2ccccc2N1)Oc1ccc(Br)cc1	PBMC	-	50 µM
CCOC(=O)C1=C(CN2CC(F)(F)[C@@H]3[C@H]2CON3C[C@@H](O)[C@@H](CC)C(=O)O)NC(c2nccs2)=N[C@H]1c1cccc(F)c1C	HepG2.2.15	WST / absorbance	>100 µM
O=C(NCCc1ccc2c(n1)NCCC2)NCc1ccc2ccccc2c1	PBMC	-	6.2 µM
NC(=S)Nc1cccc(OCCCCCOc2ccc(C(=O)O)cc2)c1	Ava5-EG(delta4AB)SEAP	MTS	>1 µM
Cc1ccc(-n2ncc3c(Nc4cccc(-c5cnco5)c4)ncnc32)c(C)c1	HUH 9B	-	18 µM
O=C(NCCc1ccc2c(n1)NCCC2)Nc1c(F)cccc1Cl	PBMC	-	50 µM
O=c1cc(-c2cnc3[nH]ccc3c2)c2cccnc2n1O	HeLa	-	<100 µM
CCOC(=O)C1=C(CN2CC(F)(F)[C@H]3[C@@H]2CCN3CC[C@@](C)(O)C(=O)O)NC(c2nccs2)=N[C@H]1c1ccc(F)c(F)c1C	HepG2.2.15	WST / absorbance	67.9 µM
CCOc1ccc(Nc2ncnc3c2cnn3-c2ccc(C)cc2C)cc1	HUH 9B	-	>34 µM
S=C(Nc1cccc(OCc2ccccc2)c1)N1CCN(CCCc2ccccc2)C1=S	Ava5-EG(delta4AB)SEAP	MTS	>1 µM
COC(=O)C1=C(CN2CC(F)(F)[C@@H]3[C@H]2CON3CC[C@](C)(O)C(=O)O)NC(c2nccs2)=N[C@H]1c1ccc(F)c(F)c1Cl	HepG2.2.15	WST / absorbance	>100 µM
CC(C)(CCOc1ccccc1)CCOc1cccc(NC(N)=S)c1	Ava5-EG(delta4AB)SEAP	MTS	>1 µM
O=c1cc(NC2CCN(Cc3ccccc3)C2)c2cccnc2n1O	HeLa	-	<100 µM
O=S(=O)(NCCc1ccc2c(n1)NCCC2)c1ccc(-c2ccccc2)cc1	PBMC	-	50 µM
CCN(CC)c1ccc(OCCCCCOc2cccc(NC(N)=S)c2)cc1	Ava5-EG(delta4AB)SEAP	MTS	>1 µM
O=C(NCCc1cccc(-n2cnc3ccccc32)n1)Nc1cccc(F)c1	PBMC	-	50 µM
C=CCCC1=NCC(OC(C)=O)c2cc(OC)c(OC)cc21	HEK 293	-	<7.5 µM
CCOC(=O)C1=C(CN2CC(F)(F)[C@@H]3[C@H]2CON3C[C@H](OC)C(C)(C)C(=O)O)NC(c2nc(C)cs2)=N[C@H]1c1cccc(F)c1C	HepG2.2.15	WST / absorbance	>50 µM
Cc1cnn(-c2cc(Cl)nc3c(C(=O)C(=O)N4CCN(C(=O)c5ccccc5)[C@H](C)C4)c[nH]c23)c1	HeLa	trypan blue	>100 µM
CCOC(=O)C1=C(CN2CC(F)(F)[C@@H]3[C@H]2CON3C[C@H](O)C(C)(C)C(=O)O)NC(c2nccs2)=N[C@H]1c1ccc(F)c(F)c1C	HepG2.2.15	WST / absorbance	>50 µM
CC(Br)Cc1cnc2c(c1)c(O)c(-c1ccccc1)c(=O)n2O	HeLa	-	<100 µM
NC(=S)Nc1cccc(OCCCCCCOc2cccc3ccccc23)c1	Ava5-EG(delta4AB)SEAP	MTS	>1 µM
O=C(NCCc1ccc2c(n1)NCCC2)NCc1ccccc1	PBMC	-	50 µM
NCc1ccc(-c2ccc3c(c2)CN(c2cc(=O)n(O)c4ncccc24)C3)cc1	HeLa	-	0.35 µM

6 of the rows above, restated:

compound	cell line	read by	result
NCc1ccc(-c2ccc3c(c2)CN(c2cc(=O)n(O)c4ncccc24)C3)cc1	HeLa	-	0.35 µM
O=C(NCCc1ccc2c(n1)NCCC2)NCc1ccccc1	PBMC	-	50 µM
CCOC(=O)C1=C(CN2CC(F)(F)[C@@H]3[C@H]2CON3C[C@@H](O)[C@@H](CC)C(=O)O)NC(c2nccs2)=N[C@H]1c1cccc(F)c1C	HepG2.2.15	WST / absorbance	>100 µM
NC(=S)Nc1cccc(OCCCCCCOc2cccc3ccccc23)c1	Ava5-EG(delta4AB)SEAP	MTS	>1 µM
NC(=S)Nc1cccc(OCCCCCOc2ccccc2-c2cc(F)cc(F)c2)c1	Ava5-EG(delta4AB)SEAP	MTS	>1 µM
Cc1ccc(-n2ncc3c(NC(=O)Nc4ccc(OCc5ccccn5)cc4)ncnc32)c(C)c1	HUH 9B	-	18 µM